# According to PubChem BioAssay AID1964107 (National Center for Advancing Translational Sciences (NCATS), 2024):
# By UniProt entry, the sequences of proteins in these tests, tags left out. Where a name states a change or a piece, a line headed by the entry shows the natural chain unless it says otherwise.
# UniProt Q8JUX6: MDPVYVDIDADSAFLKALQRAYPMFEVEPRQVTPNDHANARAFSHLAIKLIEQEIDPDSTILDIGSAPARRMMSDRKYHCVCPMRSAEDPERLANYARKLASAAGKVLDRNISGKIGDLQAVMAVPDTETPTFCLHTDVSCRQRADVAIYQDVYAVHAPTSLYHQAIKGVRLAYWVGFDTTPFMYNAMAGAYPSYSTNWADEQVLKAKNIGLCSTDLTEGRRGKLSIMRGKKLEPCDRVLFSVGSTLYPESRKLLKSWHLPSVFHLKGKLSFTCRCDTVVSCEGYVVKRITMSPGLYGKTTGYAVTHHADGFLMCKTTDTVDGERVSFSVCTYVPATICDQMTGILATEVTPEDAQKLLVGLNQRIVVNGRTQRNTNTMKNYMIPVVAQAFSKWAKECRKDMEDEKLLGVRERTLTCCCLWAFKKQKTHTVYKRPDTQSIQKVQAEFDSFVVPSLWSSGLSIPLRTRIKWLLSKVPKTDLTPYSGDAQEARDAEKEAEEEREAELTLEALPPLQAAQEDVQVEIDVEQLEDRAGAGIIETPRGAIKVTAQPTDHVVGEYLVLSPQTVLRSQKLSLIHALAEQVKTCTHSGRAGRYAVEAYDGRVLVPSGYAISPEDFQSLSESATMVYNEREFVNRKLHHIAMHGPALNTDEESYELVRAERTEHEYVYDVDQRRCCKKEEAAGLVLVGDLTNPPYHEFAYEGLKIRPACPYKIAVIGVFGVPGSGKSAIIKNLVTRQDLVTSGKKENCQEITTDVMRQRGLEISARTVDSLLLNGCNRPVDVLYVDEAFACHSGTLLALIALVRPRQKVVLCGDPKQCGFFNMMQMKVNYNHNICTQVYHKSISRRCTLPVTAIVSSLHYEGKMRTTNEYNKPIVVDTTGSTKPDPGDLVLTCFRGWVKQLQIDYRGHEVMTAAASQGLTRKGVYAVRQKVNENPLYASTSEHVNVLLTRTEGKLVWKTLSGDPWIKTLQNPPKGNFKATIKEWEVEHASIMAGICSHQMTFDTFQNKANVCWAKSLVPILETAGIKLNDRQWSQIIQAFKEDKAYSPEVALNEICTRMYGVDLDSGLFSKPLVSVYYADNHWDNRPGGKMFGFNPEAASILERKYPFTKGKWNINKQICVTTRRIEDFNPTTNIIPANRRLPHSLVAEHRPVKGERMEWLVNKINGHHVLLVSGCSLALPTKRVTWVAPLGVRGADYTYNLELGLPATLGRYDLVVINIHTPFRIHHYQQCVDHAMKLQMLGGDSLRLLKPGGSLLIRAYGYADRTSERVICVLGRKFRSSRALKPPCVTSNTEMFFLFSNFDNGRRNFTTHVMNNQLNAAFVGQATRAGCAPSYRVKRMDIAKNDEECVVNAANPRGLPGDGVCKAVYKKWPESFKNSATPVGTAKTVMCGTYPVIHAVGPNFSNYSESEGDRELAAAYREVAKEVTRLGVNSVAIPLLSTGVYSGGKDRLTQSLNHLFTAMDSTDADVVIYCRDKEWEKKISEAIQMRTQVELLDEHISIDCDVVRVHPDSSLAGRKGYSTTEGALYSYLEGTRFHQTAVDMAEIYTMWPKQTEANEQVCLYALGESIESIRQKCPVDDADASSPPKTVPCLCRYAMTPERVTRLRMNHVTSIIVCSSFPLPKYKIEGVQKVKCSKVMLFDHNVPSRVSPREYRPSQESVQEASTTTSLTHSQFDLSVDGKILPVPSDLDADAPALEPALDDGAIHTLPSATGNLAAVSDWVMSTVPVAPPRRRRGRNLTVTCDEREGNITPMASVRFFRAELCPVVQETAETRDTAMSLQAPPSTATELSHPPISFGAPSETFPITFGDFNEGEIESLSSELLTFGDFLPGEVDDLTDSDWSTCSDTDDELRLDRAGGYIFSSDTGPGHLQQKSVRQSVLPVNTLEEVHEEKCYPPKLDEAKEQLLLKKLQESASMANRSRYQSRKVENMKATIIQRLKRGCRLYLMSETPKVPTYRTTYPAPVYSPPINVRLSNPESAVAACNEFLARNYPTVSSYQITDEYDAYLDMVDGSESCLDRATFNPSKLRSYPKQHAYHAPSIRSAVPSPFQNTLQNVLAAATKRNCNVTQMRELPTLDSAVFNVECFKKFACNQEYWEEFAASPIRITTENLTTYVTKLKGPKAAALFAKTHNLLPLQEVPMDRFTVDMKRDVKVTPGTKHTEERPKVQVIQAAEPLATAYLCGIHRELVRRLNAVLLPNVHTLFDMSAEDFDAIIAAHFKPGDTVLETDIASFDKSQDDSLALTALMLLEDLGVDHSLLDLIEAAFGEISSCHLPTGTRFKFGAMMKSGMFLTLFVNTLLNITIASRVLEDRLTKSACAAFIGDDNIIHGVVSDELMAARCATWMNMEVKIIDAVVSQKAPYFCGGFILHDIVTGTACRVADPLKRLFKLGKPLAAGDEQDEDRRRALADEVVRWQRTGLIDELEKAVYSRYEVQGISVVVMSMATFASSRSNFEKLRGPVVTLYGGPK
# The entries are a selection whose mix differs from that of the whole data set. Records with an inconclusive call do not appear. Active and inactive are the calls of the source. Calls come from the whole dose curve.
# Target: Polyprotein P1234 (Chikungunya virus (strain S27-African prototype)) (UniProt Q8JUX6)
# Assay: Primary qHTS for inhibitors of NSP2Pro chikungunya virus (CHIKV); note: nearly all actives have a fitted effect of over 60% in size
# Settings: FRET peptide cleavage, fluorescence 1 h; activity change, negative = inhibition: at 24.9 µM (top of the series)
# Source text: PI: Natalia J. Martinez Ph.D. National Center for Advancing Translational Sciences (NCATS), National Institute of Health (NIH), Rockville, Maryland Chikungunya virus (CHIKV) is a mosquito-borne RNA virus that has emerged as one of the most important global arboviral threats in the last decade. Although the first CHIKV vaccine has recently been FDA approved for use in healthy adults at increased risk, to date, there are no available antiviral drugs for CHIKV infection. CHIKV nsP2 protease plays a crucial role in the processing of the viral polypeptide precursor to release enzymes required for viral replication, thus making it a promising drug target for antiviral discovery. Here, we established a high-throughput pipeline to identify small molecule inhibitors of nsP2 proteolytic activity. The pipeline is composed of a suite of 1,536-well in vitro assays to support quantitative high-throughput (qHTS) screening campaigns. Specifically, we developed a fluorescence resonance energy transfer (FRET)-based assay using a fluorogenic peptide substrate encompassing an endogenous cleavage site and purified recombinant protease domain (nsP2pro). Using this assay, we interrogated ~37,000 small molecules, including those in drug repurposing libraries as well as chemically diverse and medicinal chemistry-friendly compounds. Hits were selected for follow-up validation against full-length nsP2 and an additional peptide. FRET-based 1,536-well assays for papain, hepatitis C virus NS3-4A, and human furin proteases were implemented to characterize compound selectivity. […] Novel compounds were identified to be potential nsP2 inhibitors and molecular docking analyses were performed to explain the binding mode of selected hits. In vitro antiviral activity was evaluated for a subset of compounds using a high-throughput CHIKV infection assay. To our knowledge, the pipeline presented here is unprecedented for CHIKV antiviral discovery research.
# PROTOCOL TABLE (as described by Inglese J, Shamu CE and Guy RK. 2007) SEQUENCE No. (e.g., 1, 2, 3, etc.); […] (e.g., Cells, Incubation, Reagent, etc.); VALUE; DESCRIPTION. 1; Control / Compound; 20 nL; Echo 655 acoustic dispenser, Greiner 1536-well solid bottom black plate. 2; Enzyme; 4 uL; BioRAPTR FRD liquid dispenser (Beckman Coulter). 3; Incubation; 15 min; room temperature. 4; Reagent; 4 uL; 2.5 uM Peptide 2 substrate. 5; Incubation; 1 hr; room temperature. 6; Detection; Fluorescence; WiewLux microplate reader (PerkinElmer), 525 nm excitation, 598/25 nm emission. NOTES (numbers refer to sequence numbers above). 1. Briefly, 20 nL DMSO, positive control ZnAc (20nM final concentration), and test compounds were transferred into a 1,536-well solid bottom black plate (789176-F, Greiner One) via Echo 655 acoustic dispenser (Beckman Coulter). For primary screens, compounds were tested at 7 concentrations, 1:3 dilution points ranging from 25 uM to 34 nM. Follow-up confirmatory screens were carried out at 11 concentrations, 1:3 dilution points from 25 uM to 0.42 nM. 2. Four uL nsP2pro enzyme mix (150 nM final concentration) in 10 mM Tris-HCl pH 8.0 with 0.01% Tween 20 assay buffer was dispensed into the plate using a BioRAPTR FRD liquid dispenser (Beckman Coulter). 3. The plate was incubated at room temperature (protected from light) for 15 min 4. Four microliter of peptide 2 substrate (2.5 uM final concentration) in assay buffer was added to the plate. 5. After 1 hour, plates were immediately read on a ViewLux high-throughput CCD imager (Exposure = 10 sec, Gain = High, Speed = Slow, Binning = 2X). The above assay was also incorporated in the NCATS HTS facility41, which allowed for robotic liquid and compound dispensing, microplate handling, and fluorescence reading.. REFERENCE: Inglese J, Shamu CE and Guy RK, Reporting data from high throughput screening of small molecule libraries, Nature Chemical Biology, 2007, 3(8): 438-441. doi.org/10.1038/nchembio0807-438.
# % is set by controls: 0 for no effect and ±100 for the full control effect.
row,SMILES,"activity change, negative = inhibition"
1,N#Cc1c(-c2ccc(-c3no[n+]([O-])c3C#N)cc2)no[n+]1[O-],inactive
2,NC(=O)Nc1ccc([As](=O)(O)O)cc1,inactive: -3.28%
3,CCn1c(=O)n([C@@H]2CCN(CC3CCCCCCC3)C[C@H]2CO)c2ccccc21,inactive: -4.89%
4,CN(C)C1(c2ccccc2)CCC2(CC1)OCCc1c2[nH]c2ccc(F)cc12 (stereo unspecified),inactive: 1.72%
5,CN(C(=O)Cc1ccc(Cl)c(Cl)c1)[C@H]1CCCC[C@H]1N1CCCC1,inactive: 0.692%
6,O=C(O[C@H]1CN2CCC1CC2)C1NCc2ccccc2[C@@H]1c1ccccc1 (stereo partly specified),inactive: -0.139%
